Assay [1] concerns ZM214M.PL15 pseudovirus (clade C). The note with it: reported by Wu et al. (16); cited from earlier work.
Assay [2] shares this test system. Put plainly: HIV-1 neutralization assay (Env-pseudotyped virus, Luc reporter). Type of assay: cell-based.

The source of these data is US10066238B2, “Methods for producing antibodies” (priority 2013, dated 2018).

Like-named read-outs stand apart in the source and are kept apart here.

In the case of “VRC01HEK: HEK293F cell-produced bnMAb VRC01”, the “VRC01HEK IC50” value in assay [1] is 0.44 µg/mL.
Consider griffithsin [GRFT], for which the IC50 in assay [2] (TZM-b1 cells, GRFT, MVC concentration in combination, mean ± SEM, read-out: IC50 in a respective combination with VRC01p) was found to be 0.22 ± 0.11 nM; in assay [2] (TZM-b1 cells, GRFT, MVC, mean ± SEM, read-out: IC50 when used individually), 1.19 ± 0.59 nM. Further, the “dose reduction index (DRI) in a respective combination with VRC01p” value in assay [2] (mean ± SEM) was 2.35 ± 0.13.
With maraviroc [MVC], the “dose reduction index (DRI) in a respective combination with VRC01p” value in assay [2] (mean ± SEM) was determined as 3.15 ± 1.04. In addition, the IC50 in assay [2] (read-out: IC50 in a respective combination with VRC01p, TZM-b1 cells, GRFT, MVC concentration in combination, mean ± SEM) came to 3.79 ± 0.18 nM; in assay [2] (read-out: IC50 when used individually, TZM-b1 cells, GRFT, MVC, mean ± SEM) it was 12.1 ± 4 nM.
